Article PMC5722318, “Absence of anti-hypocretin receptor 2 autoantibodies in post pandemrix narcolepsy cases” (PLoS ONE, 2017)

Target: soluble DQ0602 monomer (heterodimer of HLA-DQA1*01:02 and HLA-DQB1*06:02) (human)
Assay: peptide competition binding assay, DELFIA time-resolved fluorescence

| Substance | percent of Bio-EBV epitope binding left with 40 uM competitor [%] |
| --- | --- |
| 21-mer HA_(136-156) peptide containing wild-type 146N | 10.8 |
| 13-mer HA_(143-155) peptide containing wild-type 146N | 43.8 |
